The match of structure and compound is tentative.
Legend:
SARS-CoV-2 replicon = assay: SARS-CoV-2 cell-based replicon assay in Huh7 cells (GFP expression); settings: read-out: Replicon EC50; Huh7 cells transfected with SARS-CoV-2 replicon RNA, 1 day, inhibition of GFP expression
[1] = tested on: human coronavirus (HCoV) 229E; settings: read-out: 229E CPE EC50, MRCS cells, 3 days, CellTiter Glo

Compound CC(C)(C)[C@H](NC(=O)CC12CC3CC(CC(C3)C1)C2)C(=O)N1C[C@H]2[C@@H]([C@H]1C(=O)N[C@H](C#N)C[C@@H]1CCNC1=O)C2(C)C has an EC50 (SARS-CoV-2 replicon) of 1250 nM and an EC50 [1] of 1700 nM.
